Laboratory results reported in article PMC11416981 (Frontiers in Pharmacology, 2024).

Assay: Teicoplanin concentration in peritoneal dialysis effluent (PDE) by HPLC
Format: in vivo, humans
Conditions: ROC analysis, 36 PDAP patients; Youden index 0.9026
Description: According to the patient’s PD plan, teicoplanin for injection was evenly distributed into each bag of PD fluid before the patient’s PD procedure to ensure that each bag of dialysis fluid entering the peritoneal cavity contained teicoplanin. […] The number of dialysis times per day is determined by the peritoneal function of each peritoneal dialysis patient.
All patients received peritoneal dialysate and serum samples. […] Serum samples were collected on the 4th day prior to drug administration. Blood samples were centrifuged at 3,000 rpm for 10 minutes. The upper serum layer was then transferred into labeled EP tubes and stored at −80°C. Peritoneal fluid samples were collected daily after the PD procedure. The peritoneal fluid bag was disinfected with iodine, and peritoneal effluent was withdrawn using a sterile syringe and stored at −80°C.
An Agilent Zorbax SB-C18 column (4.6 × 250 mm, 5 μm) was used. Methyl p-hydroxybenzoate served as the internal standard. The column temperature was kept at 35°C. The mobile phase comprised acetonitrile - 0.01 mol/L potassium dihydrogen phosphate (26:74, v/v, pH = 2.8 adjusted by phosphoric acid). A flow rate of 1 mL/min was set, with an injection volume of 40 μL. UV detection was conducted at 215 nm, while the column temperature remained at 40°C. […]

teicoplanin
ROC cutoff value of 5th day PDE teicoplanin concentration for curative outcome: 15.138 mg/L
